For two substances, Comments/other aspects results are on record in patent US20250025383A1, “EMOLLIENT COMPOSITION IN EMULSION FORM” (PIERRE FABRE MEDICAMENT, priority 2018, published 2025).

The nature of the data set: Evaluation of the compatibility of the preservatives in view of other aspects (odour, aspect, potential irritant or allergenic).

Regarding Benzalkonium chloride, under “preservative alone at 0.25% in emulsion”, the Comments/other aspects entry is “allergenic”. Turning to “macrogol lauryl ether [Thesit (macrogol lauryl ether)]”, the Comments/other aspects result (preservative alone at 3% in emulsion) is reported as “(NB: very fluid)”.
